Compound potency records, mixed from different reports. Data source: NIAID ChemDB in PubChem.

All rows: target-level tests

Percent inhibition refers to the dose given; in toxicity tests it is the harm to the cells. a–b is a range or a potency band. ICn is the concentration giving n% inhibition. Neighbouring rows are from separate reports. An empty or dashed field is not shown.

smiles,strain,endpoint,protein,agent,tested at,value
COc1cc(C)c(S(=O)(=O)N(Cc2c(C(F)(F)F)nn(Cl)c2C(=O)c2ccc(Cl)cc2Cl)[C@@H](Cc2ccccc2)C(=O)O)c(C)c1C,-,IC50,RNA-dependent RNA polymerase,Hepatitis C virus,-,5–20 µM
CC[C@@H](C=O)NC(=O)[C@@H]1C[C@@H](OCc2ccccc2)CN1C(=O)[C@@H](NC(=O)CCOc1ccccc1)C(C)C,-,Ki,NS3 protease,Hepatitis C virus,-,>100 µM
COc1nc(Nc2ccc3cn[nH]c3c2)nc(NC2CC2)n1,-,inhibition,DNA polymerase,Hepatitis B virus,1 µg/mL,54%
Cc1cc([C@@H]2C[C@@](CC(C)C)(C(=O)O)N(C(=O)c3ccc(C(C)(C)C)cc3)[C@H]2c2nccs2)n[nH]1,-,IC50,RNA-dependent RNA polymerase,Hepatitis C virus,-,<50 µM
C=C[C@@H]1C[C@]1(NC(=O)[C@@H]1C[C@@H](Oc2cc(-c3ccccc3)nc3cc(OC)ccc23)CN1C(=O)[C@@H](NC(=O)OCC(C)(C)C)C(C)(C)C)C(=O)NS(=O)(=O)C1CC1,BMS,IC50,NS3/NS4A protease,Hepatitis C virus,-,<0.05 µM
CNC1N=C(OC)N=C(Nc2ccc3cn[nH]c3c2)N1CN,-,inhibition,Nonstructural protein 5B,Hepatitis C virus,1 µg/mL,26%
CC[C@@H](C=O)NC(=O)[C@@H]1C[C@@H](OCc2ccccc2)CN1C(=O)[C@@H](NC(=O)c1c(-c2ccccc2Cl)noc1C)C(C)C,-,Ki,NS3 protease,Hepatitis C virus,-,>100 µM
COc1cccc(-c2cc(-c3ccc(-c4ccccc4)cc3)n3nc(C(=O)O)cc3n2)c1,-,IC50,RNA-dependent RNA polymerase,Hepatitis C virus,-,1–10 µM
CC[C@@H](C=O)NC(=O)[C@@H]1C[C@@H](OCc2ccccc2)CN1C(=O)[C@@H](NS(=O)(=O)Cc1ccccc1)C(C)C,-,Ki,NS3 protease,Hepatitis C virus,-,>100 µM
CC(=O)c1ccc(-c2cc(N(C(=O)C3CCC(C)CC3)C(C)C)c(C(=O)O)s2)cc1,-,IC50,NS3 ATPase,Hepatitis C virus,-,<5 µM
COC(=O)c1ccc(-c2ccc(Cl)cc2)c(COc2ccc(-c3cnc4c(-c5nn[nH]n5)cnn4c3C3CCCCC3)cc2)c1,-,IC50,RNA-dependent RNA polymerase,Hepatitis C virus,-,<1 µM
COc1nc(NCCc2c[nH]c3ccccc23)nc(Nc2ccc3[nH]ncc3c2)n1,-,inhibition,Nonstructural protein 5B,Hepatitis C virus,10 µg/mL,33%
C=C[C@@H]1C[C@]1(NC(=O)[C@@H]1C[C@@H](Oc2cc(-c3ccccc3)nc3cc(OC)ccc23)CN1C(=O)[C@@H](NC(=O)OC(C)(C)C)C(C)(C)C)C(=O)NS(=O)(=O)c1ccc(C)cc1,BMS,IC50,NS3/NS4A protease,Hepatitis C virus,-,<0.05 µM
CC[C@@H](C=O)NC(=O)[C@@H]1C[C@@H](NC(=O)c2ccc3ccccc3c2)CN1C(=O)[C@@H](NC(=O)[C@@H](NC(=O)c1cnccn1)C(C)C)C(C)C,-,Ki,NS3 protease,Hepatitis C virus,-,1–100 µM
COC(=O)c1cc2nc(-c3ccc(OC)cc3)cc(C(F)(F)F)n2n1,-,IC50,RNA-dependent RNA polymerase,Hepatitis C virus,-,>10 µM
Cc1noc([C@@H]2C[C@@](CC(C)C)(C(=O)O)N(C(=O)c3ccc(C(C)(C)C)c(Cl)c3)[C@H]2c2nccs2)n1,-,IC50,RNA-dependent RNA polymerase,Hepatitis C virus,-,<50 µM
CCC[C@H](NC(=O)[C@@H]1CCCN1C(=O)[C@@H](NC(=O)[C@@H](NC(=O)[C@H](CC(=O)O)NC(=O)[C@H](CC(=O)O)NC(C)=O)[C@@H](C)CC)C(C)C)C(=O)O,-,Ki,NS3 serine protease,Hepatitis C virus,-,150 µM
N#Cc1cccc(-c2cc(NS(=O)(=O)c3ccccn3)cs2)c1,-,IC50,NS3 ATPase,Hepatitis C virus,-,<5 µM
O=C(O)[C@H](Cc1ccccc1)N(Cc1cnc(N2CCCCC2)s1)C(=O)c1ccc(Cl)cc1Cl,-,IC50,RNA-dependent RNA polymerase,Hepatitis C virus,-,<5 µM
C=C[C@@H]1C[C@]1(NC(=O)[C@@H]1C[C@@H](Oc2cc(-c3ccccc3)nc3cc(OC)ccc23)CN1C(=O)[C@@H](N)C(C)(C)C)C(=O)NS(=O)(=O)C1CC1,BMS,IC50,NS3/NS4A protease,Hepatitis C virus,-,<0.05 µM
CCOC(=O)c1cc2nc(-c3ccc(Cl)cc3)cc(-c3ccc(Cl)cc3)n2n1,-,IC50,RNA-dependent RNA polymerase,Hepatitis C virus,-,>10 µM
C=C[C@@H]1C[C@]1(NC(=O)[C@@H]1C[C@@H](Oc2cc(-c3ccccc3)nc3cc(OC)ccc23)CN1C(=O)[C@@H](NC(=O)OCc1ccccc1)C(C)(C)C)C(=O)NS(=O)(=O)C1CC1,BMS,IC50,NS3/NS4A protease,Hepatitis C virus,-,<0.05 µM
COc1cc(C(=O)N2[C@@H](c3nccs3)[C@@H](c3nnc(C)o3)C[C@@]2(CC(C)C)C(=O)O)ccc1C(C)(C)C,-,IC50,RNA-dependent RNA polymerase,Hepatitis C virus,-,<50 µM
CC[C@@H](C=O)NC(=O)[C@@H]1C[C@@H](OCc2ccccc2)CN1C(=O)[C@@H](NC(=O)c1cc(C)oc1C)C(C)C,-,Ki,NS3 protease,Hepatitis C virus,-,>100 µM
Cc1cc([C@@H]2C[C@@](CC(C)C)(C(=O)O)N(C(=O)c3ccc(C(C)(C)C)cc3)[C@H]2c2nccs2)on1,-,IC50,RNA-dependent RNA polymerase,Hepatitis C virus,-,<50 µM
COc1nc(Nc2ccc3[nH]ncc3c2)nc(NN2CCN(C)CC2)n1,-,inhibition,DNA polymerase,Hepatitis B virus,1 µg/mL,39%
CC(C)C[C@@]1(C(=O)O)C[C@H](c2ncno2)[C@H](c2nc3ccccc3s2)N1C(=O)c1ccc(C(C)(C)C)cc1,-,IC50,RNA-dependent RNA polymerase,Hepatitis C virus,-,<50 µM
O=C(O)c1cc2nc(-c3ccc(OCc4ccccc4)cc3)cc(-c3ccc(Cl)cc3)n2n1,-,IC50,RNA-dependent RNA polymerase,Hepatitis C virus,-,1–10 µM
O=C(O)[C@H](Cc1ccccc1)N(Cc1ccc(-c2ccccc2Cl)o1)C(=O)c1ccc(Cl)cc1Cl,-,IC50,RNA-dependent RNA polymerase,Hepatitis C virus,-,<5 µM
C=C[C@@H]1C[C@]1(NC(=O)[C@@H]1C[C@@H](Oc2cc(-c3ccccc3)nc3cc(OC)ccc23)CN1C(=O)[C@@H](NC(=O)OC(C)(C)C)C(C)(C)C)C(=O)NS(=O)(=O)c1ccc(Br)cc1,BMS,IC50,NS3/NS4A protease,Hepatitis C virus,-,<0.5 µM
c1ccc(COc2ccc(-c3cnc4c(-c5nn[nH]n5)cnn4c3N3CCOCC3)cc2)cc1,-,IC50,RNA-dependent RNA polymerase,Hepatitis C virus,-,>10 µM
CCOC(=O)c1cccc(-c2ccc(CN(C(=O)c3ccc(Cl)cc3Cl)C(Cc3ccccc3)C(=O)O)s2)c1,-,IC50,RNA-dependent RNA polymerase,Hepatitis C virus,-,<5 µM
CC(C)N(C(=O)c1ccc(Cl)cc1Cl)c1cc(-c2nn[nH]n2)sc1C(=O)O,-,IC50,NS3 ATPase,Hepatitis C virus,-,<5 µM
Cc1nc([C@H]2C[C@@](CC(C)C)(C(=O)O)N(C(=O)c3ccc(C(C)(C)C)cc3)[C@H]2c2nccs2)n[nH]1,-,IC50,RNA-dependent RNA polymerase,Hepatitis C virus,-,<50 µM
C=C[C@@H]1C[C@]1(NC(=O)[C@@H]1C[C@@H](Oc2cc(-c3ccccc3)nc3cc(OC)ccc23)CN1C(=O)[C@@H](NC(=O)OCO)C(C)(C)C)C(=O)NS(=O)(=O)C1CC1,BMS,IC50,NS3/NS4A protease,Hepatitis C virus,-,<0.05 µM
O=C(O)c1cccc(-c2ccc(CN(C(=O)c3ccc(Cl)cc3Cl)C(Cc3ccccc3)C(=O)O)s2)c1,-,IC50,RNA-dependent RNA polymerase,Hepatitis C virus,-,<5 µM
C=C[C@@H]1C[C@]1(NC(=O)[C@@H]1C[C@@H](Oc2cc(-c3ccccc3)nc3cc(OC)ccc23)CN1C(=O)[C@@H](NC(=O)N(CCC(F)(F)F)CC1CC1)C(C)(C)C)C(=O)NS(=O)(=O)C1CC1,BMS,IC50,NS3/NS4A protease,Hepatitis C virus,-,<0.05 µM
O=C(O)C(Cc1ccccc1)N(Cc1ccc(-c2ccccc2C(F)(F)F)o1)C(=O)c1ccc(Cl)cc1Cl,-,IC50,RNA-dependent RNA polymerase,Hepatitis C virus,-,<5 µM
O=C(O)c1sc(-c2ccc(F)cc2)cc1NS(=O)(=O)c1ccccc1,-,IC50,NS3 ATPase,Hepatitis C virus,-,<5 µM
O=C(O)[C@H](Cc1ccccc1)N(Cc1ccc(-c2cc(F)cc(F)c2)o1)C(=O)c1ccc(Cl)cc1Cl,-,IC50,RNA-dependent RNA polymerase,Hepatitis C virus,-,<5 µM
CN(C(=O)Cc1ccccc1)c1cc(-c2ccccc2)sc1C(=O)O,-,IC50,NS3 ATPase,Hepatitis C virus,-,<5 µM
CC(C)NC1=NC(NC(C)C)N(CN)C(Nc2ccc3cn[nH]c3c2)=N1,-,inhibition,DNA polymerase,Hepatitis B virus,1 µg/mL,77%
O=C(O)C(Cc1ccccc1)N(Cc1cc(-c2ccc(F)c(Cl)c2)cs1)C(=O)c1ccc(Cl)cc1Cl,-,IC50,RNA-dependent RNA polymerase,Hepatitis C virus,-,<5 µM
CC(C)N(C(=O)c1ccc(C(F)(F)F)cc1F)c1cc(-c2ccccc2)sc1C(=O)O,-,IC50,NS3 ATPase,Hepatitis C virus,-,<5 µM
C=C[C@@H]1C[C@]1(NC(=O)[C@@H]1C[C@@H](Oc2cc(-c3ccccc3)nc3cc(OC)ccc23)CN1C(=O)[C@@H](NS(=O)(=O)C1CC1)C(C)(C)C)C(=O)NS(=O)(=O)C1CC1,BMS,IC50,NS3/NS4A protease,Hepatitis C virus,-,<0.05 µM
COc1cc(C(=O)N2[C@@H](c3nccs3)[C@@H](c3nc(C)no3)C[C@@]2(CC(C)C)C(=O)O)ccc1C(C)(C)C,-,IC50,RNA-dependent RNA polymerase,Hepatitis C virus,-,<50 µM
O=C(O)[C@H](Cc1ccccc1)N(Cc1ccc(Br)o1)C(=O)c1ccc(Cl)cc1Br,-,IC50,RNA-dependent RNA polymerase,Hepatitis C virus,-,<5 µM
CCOC(=O)c1c(C)c(S(=O)(=O)Nc2cc(-c3ccccc3)sc2C(=O)O)c(-c2ccc(Cl)cc2)n1-c1ccccc1,-,IC50,NS3 ATPase,Hepatitis C virus,-,5–20 µM
c1ccc(COc2ccc(-c3c(-c4ccccc4)cnc4c(-c5nn[nH]n5)cnn34)cc2)cc1,-,IC50,RNA-dependent RNA polymerase,Hepatitis C virus,-,>10 µM
CC(C)C[C@@]1(C(=O)O)C[C@H](c2nc(-c3ccc(F)cc3)no2)[C@H](c2nccs2)N1C(=O)c1ccc(C(C)(C)C)c(Br)c1,-,IC50,RNA-dependent RNA polymerase,Hepatitis C virus,-,<50 µM
O=C(O)c1cc2nc(-c3ccc(Cl)cc3Cl)cc(-c3ccc(Cl)cc3Cl)n2n1,-,IC50,RNA-dependent RNA polymerase,Hepatitis C virus,-,1–10 µM
CC(C)C[C@@]1(C(=O)O)C[C@@H](c2nc3ccccc3o2)[C@H](c2nccs2)N1C(=O)c1ccc(C(C)(C)C)c(Br)c1,-,IC50,RNA-dependent RNA polymerase,Hepatitis C virus,-,<50 µM

For reference, 7 entries again:

smiles,strain,endpoint,protein,agent,tested at,value
O=C(O)C(Cc1ccccc1)N(Cc1ccc(-c2ccccc2C(F)(F)F)o1)C(=O)c1ccc(Cl)cc1Cl,-,IC50,RNA-dependent RNA polymerase,Hepatitis C virus,-,<5 µM
COc1cc(C)c(S(=O)(=O)N(Cc2c(C(F)(F)F)nn(Cl)c2C(=O)c2ccc(Cl)cc2Cl)[C@@H](Cc2ccccc2)C(=O)O)c(C)c1C,-,IC50,RNA-dependent RNA polymerase,Hepatitis C virus,-,5–20 µM
COc1cc(C(=O)N2[C@@H](c3nccs3)[C@@H](c3nnc(C)o3)C[C@@]2(CC(C)C)C(=O)O)ccc1C(C)(C)C,-,IC50,RNA-dependent RNA polymerase,Hepatitis C virus,-,<50 µM
CC(C)C[C@@]1(C(=O)O)C[C@@H](c2nc3ccccc3o2)[C@H](c2nccs2)N1C(=O)c1ccc(C(C)(C)C)c(Br)c1,-,IC50,RNA-dependent RNA polymerase,Hepatitis C virus,-,<50 µM
O=C(O)[C@H](Cc1ccccc1)N(Cc1ccc(-c2ccccc2Cl)o1)C(=O)c1ccc(Cl)cc1Cl,-,IC50,RNA-dependent RNA polymerase,Hepatitis C virus,-,<5 µM
CCOC(=O)c1cc2nc(-c3ccc(Cl)cc3)cc(-c3ccc(Cl)cc3)n2n1,-,IC50,RNA-dependent RNA polymerase,Hepatitis C virus,-,>10 µM
C=C[C@@H]1C[C@]1(NC(=O)[C@@H]1C[C@@H](Oc2cc(-c3ccccc3)nc3cc(OC)ccc23)CN1C(=O)[C@@H](NC(=O)OCO)C(C)(C)C)C(=O)NS(=O)(=O)C1CC1,BMS,IC50,NS3/NS4A protease,Hepatitis C virus,-,<0.05 µM